In publication PMC4048260:

Assays:
Test in all cases: ELISA; purified trimeric gp140 coated on the plate (100 ng per well, over night, 4°C); CD4-Fc in 8 concentrations between 0 and 10 nM in PBS/0.1% Tween/0.1% BSA, 1.5 h, room temperature; HRP anti-human IgG, chemiluminescence; KD from nonlinear regression fits (PRISM)
[1] = target: ADA gp140 trimer (HIV-1 strain ADA)
[2] = target: NL4-3/ADA gp140 trimer (HIV-1 strain NL4-3 | HIV-1 strain ADA)
[3] = target: NL4-3 gp140 trimer (HIV-1 strain NL4-3)

With “CD4-Fc (from UniProt P01730 26-396) (Fc fusion)” the Kd [1] was 3.28 nM, the Kd [2] was 5.17 nM and the Kd [3] was 5.21 nM.
